Measured values from several laboratories, pooled; numbers as filed in NIAID ChemDB.

All rows: host cell toxicity; cells: PBL; endpoint: CC50

Lines come from different laboratories, so protocols vary.

| SMILES | result |
|---|---|
| O=c1[nH]cnc2c1ncn2[C@H]1CC[C@@H](CO)O1 | >250 µM |
| CC(C)C[C@H](NC(=O)[C@H](Cc1ccccc1)NC(=O)CNC(=O)CNC(=O)[C@@H](N)Cc1ccc(O)cc1)C(=O)N[C@@H]1[C@@H](O)[C@H](O)[C@@H](CO)O[C@H]1O | >140 µM |
| Cc1c(N)nc([C@H](CC(N)=O)NC[C@H](N)C(N)=O)nc1C(=O)N[C@H](C(=O)N[C@H](C)[C@@H](O)[C@H](C)C(=O)N[C@H](C(=O)NCCc1nc(-c2nc(C(=O)NCCC[S+](C)C)cs2)cs1)[C@@H](C)O)C(O[C@@H]1O[C@@H](CO)[C@@H](O)[C@H](O)[C@@H]1O[C@H]1O[C@H](CO)[C@@H](O)[C@H](OC(N)=O)[C@@H]1O)c1cnc[nH]1 | >300 µM |
| C[C@]12CC[C@H](O)CC1=CC[C@@H]1[C@@H]2CC[C@]2(C)C(=O)CC[C@@H]12 | >100 µM |
| C#Cc1c(C(N)=O)ncn1[C@@H]1O[C@H](CO)[C@@H](O)[C@H]1O | 1.35 µM |
| CC[C@H](C)C=C(C)/C=C/C1=CC2=C(Cl)C(=O)[C@](C)(O)[C@H](CC(C)=O)C2=CO1 | >25 µM |
| COc1ccc(C(=O)N2CCN(c3ccc4c(c3)CCC(=O)N4)CC2)cc1OC | >100 µg/mL |
| C1CNCCNCCCN(CCCN2CCCNCCNCCCNCC2)CCNC1 | >1865 µM |
| Nc1ncnc2c1ncn2CC(CF)OCP(=O)(O)O | >500 µM |
| CC(C)C[C@H](NC(=O)[C@H](Cc1ccccc1)NC(=O)CNC(=O)CNC(=O)[C@@H](N)Cc1ccc(O)cc1)C(=O)NC[C@H]1OC(O)[C@H](O)[C@@H](O)[C@@H]1O | >140 µM |
| CCc1cc(NCc2nc3c(C)ccc(C)c3o2)c(=O)[nH]c1C | >60 µM |
| CC(C)=CCN1Cc2cccc3[nH]c(=S)n(c23)C[C@@H]1C | 800 µM |
| CCCCC#CCSc1ccccc1OC(C)=O | 100–200 µM |
| Nc1ncnc2c1ncn2[C@@H]1CC[C@@H](O)[C@H]1O | 0.023 µM |
| O=C(O)c1cc(O)cc(O)c1N=Nc1ccc(/C=C/c2ccc(N=Nc3c(O)cc(O)cc3C(=O)O)cc2S(=O)(=O)O)c(S(=O)(=O)O)c1 | 125 µg/mL |
| NC(=O)c1cccc(N=O)c1 | >50 µM |
| C[C@H](Cn1cnc2c(N)nc(N)nc21)OCP(=O)(O)O | >300 µM |
| CCN(CC)CCCC(C)Nc1ccnc2cc(Cl)ccc12 | >100 µM |
| Nc1ncnc2c1ncn2[C@H]1C=C[C@@H](CO)O1 | 14 µM |
| C=C(C)OC(=O)N1c2cc(Cl)ccc2NC(=S)C1(C)C | 25 µM |
| CC(C)[C@H](NC(=O)N(C)Cc1ccccn1)C(=O)N[C@@H](Cc1ccccc1)[C@H](O)[C@H](O)[C@H](Cc1ccccc1)NC(=O)[C@@H](NC(=O)N(C)Cc1ccccn1)C(C)C | 100 µM |
| O=C1CN=C(c2ccc[nH]2)c2cc(Cl)ccc2N1 | 120 µM |
| CC(=O)N(O)CCCCCNC(=O)CCC(=O)N(O)CCCCCNC(=O)CCC(=O)N(O)CCCCCN | 30–100 µM |
| CC(C)C[C@H](NC(=O)[C@H](Cc1ccccc1)NC(=O)CNC(=O)CNC(=O)[C@@H](N)Cc1ccc(O)cc1)C(=O)O | >140 µM |
| O=c1c2ccccc2n2nnc3ccc(NCCCN4CCN(CCCNc5ccc6nnn7c8ccccc8c(=O)c5c67)CC4)c1c32 | >1.5 µM |
| CCOCn1c(Sc2cc(C)cc(C)c2)c(CC)c(=O)[nH]c1=O | 56 µM |
| CCOCn1c(Cc2ccccc2)c(C(C)C)c(=O)[nH]c1=O | 95 µM |
| Nc1ccn([C@@H]2O[C@H](CO)C[C@@H]2F)c(=O)n1 | 11 µg/mL |
| Nc1ccn([C@H]2CC[C@@H](CO)O2)c(=O)n1 | 292 µM |
| COC(=O)[C@H](C)NP(=O)(OC[C@@H]1CC[C@H](n2cnc3c(N)ncnc32)O1)Oc1ccccc1 | 4.6 µM |

A second listing of 4 rows from above:

SMILES	result
CC(C)C[C@H](NC(=O)[C@H](Cc1ccccc1)NC(=O)CNC(=O)CNC(=O)[C@@H](N)Cc1ccc(O)cc1)C(=O)NC[C@H]1OC(O)[C@H](O)[C@@H](O)[C@@H]1O	>140 µM
Nc1ncnc2c1ncn2CC(CF)OCP(=O)(O)O	>500 µM
CCOCn1c(Cc2ccccc2)c(C(C)C)c(=O)[nH]c1=O	95 µM
COc1ccc(C(=O)N2CCN(c3ccc4c(c3)CCC(=O)N4)CC2)cc1OC	>100 µg/mL

Two numbers with a dash give a range or band. CCn is the concentration with n% toxicity to the cells.